PMC8539749 (Viruses, 2021)

System: Huh-7 cells
Assay: Cytotoxicity, Cell-Titer-Glo luminescent assay
Conditions: CellTiter-Glo

N=C(N)NCCC[C@@H]1NC(=O)[C@@H](NC(=O)[C@@H](N)CCCCN)CCCCNC(=O)[C@H](CO)NC(=O)CNC(=O)[C@H](Cc2ccccc2)NC(=O)CNC1=O [HKU-P1]
cytotoxicity (in words) (1000 μg/mL): negligible cytotoxicity | CC50 (higher concentration impracticable to test (stock 10 mg/mL)): above 1000 μg/mL
